How the values were obtained:
[1] = system: Staphylococcus epidermidis; assay: Antimicrobial activity against Staphylococcus epidermidis ATCC 12228 assessed as ratio of maximum zone of inhibition to concentration required to reach half maximum zone of inhibition after 24 hrs; type: functional
Escherichia coli = assay: Antimicrobial activity against Escherichia coli K-12 C600 assessed as ratio of maximum zone of inhibition to concentration required to reach half maximum zone of inhibition after 24 hrs; type: functional

Compound `CCCC[N+](CCCC)(CCCC)CCCC.[C-]#N` has a ZImax/KZI (mm microL/micromol) [1] of 16.1 and a ZImax/KZI (mm microL/micromol) (Escherichia coli) of 2.48.
